Pooled drug test results. Numbers come from NIAID ChemDB, via PubChem.

Common to all: whole-cell or culture tests; agent: Aspergillus niger; read-out: zone

Zone: diameter of growth inhibition. Lines come from different laboratories, so protocols vary.

{"SMILES": "O=C(COc1ccc(-c2nc(-c3ccccc3)c(-c3ccccc3)s2)cc1)CN1CCOCC1", "tested at": "100 µg/mL", "strain": "ATCC 16404", "method": "agar diffusion / agar", "value": "21 mm"}
{"SMILES": "COc1ccc2nc3n4c(c5ccccc5c-3c2c1)NN=C(c1ccc(Cl)cc1)C4", "tested at": "25 µg/mL", "strain": "MTCC 281", "method": "agar diffusion / visual reading", "value": "8 mm"}
{"SMILES": "CC[C@H]1OC(=O)[C@H](C)[C@@H](O[C@H]2C[C@@](C)(OC)[C@@H](O)[C@H](C)O2)[C@H](C)[C@@H](O[C@@H]2O[C@H](C)C[C@H](N(C)C)[C@H]2O)[C@](C)(O)C[C@@H](C)CN(C)[C@H](C)[C@@H](O)[C@]1(C)O", "tested at": "25 µg", "method": "agar diffusion", "value": "18 mm"}
{"SMILES": "Clc1ccc2nc3n4c(c5ccccc5c-3c2c1)NN=C(c1ccccc1)C4", "tested at": "50 µg/mL", "strain": "MTCC 281", "method": "agar diffusion / visual reading", "value": "6 mm"}
{"SMILES": "O=C(NN1C(=O)CSC1C1C(c2ccccc2)=Nc2ccc(Cl)cc21)N1c2ccccc2C=Cc2ccccc21", "tested at": "1000 µg/mL", "strain": "MTCC 281", "method": "agar diffusion", "value": "14 mm"}
{"SMILES": "CC(=Nc1cccc2cccc(N=C(C)c3c(O)ccc4c(C)cc(=O)oc34)c12)c1c(O)ccc2c(C)cc(=O)oc12", "tested at": "200 µg/mL", "strain": "MTCC 1881", "value": "11 mm"}
{"SMILES": "CC(C)c1ccc2c(c1)CCC1C(C)(C)[C@@H](O)CC[C@]21C", "tested at": "100 µg/disc", "strain": "ATCC64958", "method": "agar diffusion / agar", "value": "25.3 mm"}
{"SMILES": "O=C(NN=CC1C(c2ccccc2)=Nc2ccc(Cl)cc21)N1c2ccccc2C=Cc2ccccc21", "tested at": "500 µg/mL", "strain": "MTCC 281", "method": "agar diffusion", "value": "12 mm"}
{"SMILES": "COc1c(CO)c(O)cc2c1C(=O)c1ccccc1C2=O", "tested at": "13.3 µg/disc", "method": "agar diffusion", "value": "0 mm"}
{"SMILES": "c1ccc(-c2nc(-c3ccc(N4CCOCC4)cc3)sc2-c2ccccc2)cc1", "tested at": "100 µg/mL", "strain": "ATCC 16404", "method": "agar diffusion / agar", "value": "21 mm"}
{"SMILES": "Cc1ccc2c(c1)C(C1SCC(=O)N1NC(=O)N1c3ccccc3C=Cc3ccccc31)C(c1ccccc1)=N2", "tested at": "750 µg/mL", "strain": "MTCC 281", "method": "agar diffusion", "value": "2 mm"}
{"SMILES": "CC1(C)C=C2[C@H]3CC[C@@H]4[C@@]5(C)CC[C@H](O)C(C)(C)[C@@H]5CC[C@@]4(C)[C@]3(C)CC[C@@]2(C)CC1", "tested at": "30 mg/disc", "strain": "UPCC 3701", "method": "agar diffusion", "value": "0 mm"}
{"SMILES": "Cc1ccc2[nH]c3nc(NNC(=O)c4ccccc4C(=O)O)c4ccccc4c3c2c1", "tested at": "25 µg/mL", "strain": "MTCC 281", "method": "agar diffusion / visual reading", "value": "10 mm"}
{"SMILES": "O=[N+]([O-])c1ccc(NCc2cc3ccccc3nc2Cl)cc1", "tested at": "200 µg/mL", "strain": "MTCC 281", "method": "agar diffusion", "value": "8.06 mm"}
{"SMILES": "Cc1ccc(S(=O)(=O)CNc2oc3[nH]c(=O)[nH]c(=O)c3c2-c2ccc(O)cc2)cc1", "tested at": "100 µg/mL", "method": "agar diffusion / agar", "value": "3 mm"}
{"SMILES": "NC(=S)c1ccc(OC(=O)CNc2ccc(Cl)cc2)cc1", "tested at": "100 µg/mL", "strain": "ATCC 16404", "method": "agar diffusion / agar", "value": "19 mm"}
{"SMILES": "CS(=O)(=O)c1nc(N)c(C#N)c(-c2ccccc2Cl)n1", "tested at": "50 µg/mL", "strain": "MTCC 282", "method": "agar diffusion", "value": "18 mm"}
{"SMILES": "CN(C)C=O", "tested at": "30 µg/mL", "value": "6 mm"}
{"SMILES": "N#C/C(=C\\c1ccccc1[N+](=O)[O-])c1ccc([N+](=O)[O-])cc1", "tested at": "100 µg", "method": "agar diffusion", "value": "0 mm"}
{"SMILES": "CN(Cc1cc2ccccc2nc1Cl)c1cccc(Cl)c1", "tested at": "200 µg/mL", "strain": "MTCC 281", "method": "agar diffusion", "value": "15.21 mm"}
{"SMILES": "c1ccc(-c2nc(-c3ccc(N4CCCC4)cc3)sc2-c2ccccc2)cc1", "tested at": "100 µg/mL", "strain": "ATCC 16404", "method": "agar diffusion / agar", "value": "23 mm"}
{"SMILES": "CSC1=NC(c2ccccc2O)C(C#N)=C(N)N1", "tested at": "100 µg/mL", "strain": "MTCC 282", "method": "agar diffusion", "value": "16 mm"}
{"SMILES": "Cc1ccc(/C=C(\\C#N)c2ccccc2)cc1", "tested at": "100 µg", "method": "agar diffusion", "value": "0 mm"}
{"SMILES": "COc1cc(/C=C/C(=O)O)ccc1O", "tested at": "100 µg/disc", "strain": "ATCC64958", "method": "agar diffusion / agar", "value": "39 mm"}
{"SMILES": "Cc1nc2ccccc2n(CC(=O)NN2C(=O)CSC2c2ccc(Cl)cc2)c1=O", "tested at": "100 µg/mL", "value": "19 mm"}
{"SMILES": "Clc1ccc(NCc2cc3ccccc3nc2Cl)cc1Cl", "tested at": "200 µg/mL", "strain": "MTCC 281", "method": "agar diffusion", "value": "19.6 mm"}
{"SMILES": "N#C/C(=C\\c1ccccc1[N+](=O)[O-])c1ccccc1", "tested at": "100 µg", "method": "agar diffusion", "value": "0 mm"}
{"SMILES": "CSC1=NC(c2ccccc2)C(C#N)=C(N)N1", "tested at": "25 µg/mL", "strain": "MTCC 282", "method": "agar diffusion", "value": "15 mm"}
{"SMILES": "Clc1ccc(NCc2cc3ccccc3nc2Cl)cc1", "tested at": "200 µg/mL", "strain": "MTCC 281", "method": "agar diffusion", "value": "15.86 mm"}
{"SMILES": "Cc1ccc2nc3n4c(c5ccccc5c-3c2c1)NN=C(c1ccccc1)C4", "tested at": "6.25 µg/mL", "strain": "MTCC 281", "method": "agar diffusion / visual reading", "value": "8 mm"}
{"SMILES": "O=C1c2ccccc2C(=O)c2c1cc(O[C@@H]1O[C@H](CO[C@@H]3OC[C@@H](O)[C@H](O)[C@H]3O)[C@@H](O)[C@H](O)[C@H]1O)c(CO)c2O", "tested at": "13.3 µg/disc", "method": "agar diffusion", "value": "0 mm"}
{"SMILES": "CC(C)(C)c1nnc2c3ccccc3c3c4cc(Cl)ccc4[nH]c3n12", "tested at": "12.5 µg/mL", "strain": "MTCC 281", "method": "agar diffusion / visual reading", "value": "9 mm"}
{"SMILES": "CCOCc1c(O)cc2c(c1O)C(=O)c1ccccc1C2=O", "tested at": "13.3 µg/disc", "method": "agar diffusion", "value": "0 mm"}
{"SMILES": "CN(Cc1cc2ccccc2nc1Cl)c1ccc(F)c(Cl)c1", "tested at": "200 µg/mL", "strain": "MTCC 281", "method": "agar diffusion", "value": "19.44 mm"}
{"SMILES": "c1ccc(-c2nc(-c3ccc(Nc4nncs4)cc3)sc2-c2ccccc2)cc1", "tested at": "100 µg/mL", "strain": "ATCC 16404", "method": "agar diffusion / agar", "value": "24 mm"}
{"SMILES": "CS(=O)(=O)c1nc(N)c(C#N)c(-c2ccccc2)n1", "tested at": "50 µg/mL", "strain": "MTCC 282", "method": "agar diffusion", "value": "19 mm"}
{"SMILES": "Cc1ccc(S(=O)(=O)CNc2oc3[nH]c(=O)[nH]c(=O)c3c2-c2ccc([N+](=O)[O-])cc2)cc1", "tested at": "100 µg/mL", "method": "agar diffusion / agar", "value": "7 mm"}
{"SMILES": "COc1ccc(-c2nc(S(C)(=O)=O)nc(N)c2C#N)cc1", "tested at": "100 µg/mL", "strain": "MTCC 282", "method": "agar diffusion", "value": "21 mm"}
{"SMILES": "NC(=S)c1ccc(OC(=O)CN2CCCC2)cc1", "tested at": "100 µg/mL", "strain": "ATCC 16404", "method": "agar diffusion / agar", "value": "24 mm"}
{"SMILES": "CC1(C)CC2C3=CCC4[C@@]5(C)CCC(=O)C(C)(C)C5CC[C@@]4(C)[C@]3(C)C[C@@H](O)[C@@]2(CO)[C@@H](O)C1", "tested at": "30 mg/disc", "strain": "UPCC 3701", "method": "agar diffusion", "value": "0 mm"}
{"SMILES": "CSC1=NC(c2ccc(Cl)cc2)C(C#N)=C(N)N1", "tested at": "25 µg/mL", "strain": "MTCC 282", "method": "agar diffusion", "value": "14 mm"}
{"SMILES": "Cc1nc2ccccc2n(CC(=O)NN2C(=O)CSC2c2ccc(N(C)C)cc2)c1=O", "tested at": "50 µg/mL", "value": "11 mm"}
{"SMILES": "N#C/C(=C\\c1ccc(Br)cc1)c1ccccc1", "tested at": "100 µg", "method": "agar diffusion", "value": "0 mm"}
{"SMILES": "CSC1=NC(/C=C/c2ccccc2)C(C#N)=C(N)N1", "tested at": "25 µg/mL", "strain": "MTCC 282", "method": "agar diffusion", "value": "13 mm"}
{"SMILES": "CC(C)n1c(/C=C/C=Nn2cn[nH]c2=S)c(-c2ccc(F)cc2)c2ccccc21", "tested at": "100 µg/mL", "value": "10 mm"}
{"SMILES": "COc1ccc(C2SCC(=O)N2NC(=O)Cn2c(=O)c(C)nc3ccccc32)cc1O", "tested at": "100 µg/mL", "value": "21 mm"}
{"SMILES": "CN(C)c1ccc(/C=C(\\C#N)c2ccccc2)cc1", "tested at": "100 µg", "method": "agar diffusion", "value": "0 mm"}
{"SMILES": "NC(=S)c1ccc(OC(=O)CN2CCOCC2)cc1", "tested at": "100 µg/mL", "strain": "ATCC 16404", "method": "agar diffusion / agar", "value": "19 mm"}
{"SMILES": "Cc1ccccc1NCc1cc2ccccc2nc1Cl", "tested at": "200 µg/mL", "strain": "MTCC 281", "method": "agar diffusion", "value": "8.66 mm"}
{"SMILES": "Cc1ccc(S(=O)(=O)CNc2oc3[nH]c(=O)[nH]c(=O)c3c2-c2ccc(F)cc2)cc1", "tested at": "100 µg/mL", "method": "agar diffusion / agar", "value": "5 mm"}
{"SMILES": "CSC1=NC(c2cccc([N+](=O)[O-])c2)C(C#N)=C(N)N1", "tested at": "50 µg/mL", "strain": "MTCC 282", "method": "agar diffusion", "value": "14 mm"}
{"SMILES": "C[C@@H]1O[C@@H](O[C@@H]2[C@@H](O)[C@H](OCCc3ccc(O)c(O)c3)O[C@H](CO)[C@H]2OC(=O)/C=C/c2ccc(O)c(O)c2)[C@H](O)[C@H](O)[C@H]1O", "tested at": "100 µg/disc", "strain": "ATCC64958", "method": "agar diffusion / agar", "value": "5.5 mm"}
{"SMILES": "COc1ccc(C2SCC(=O)N2NC(=O)Cn2c(=O)c(C)nc3ccccc32)cc1OC", "tested at": "50 µg/mL", "value": "10 mm"}

For reference, 8 entries again:

CN(Cc1cc2ccccc2nc1Cl)c1cccc(Cl)c1 ; tested at: 200 µg/mL ; strain: MTCC 281 ; method: agar diffusion ; value: 15.21 mm
c1ccc(-c2nc(-c3ccc(N4CCCC4)cc3)sc2-c2ccccc2)cc1 ; tested at: 100 µg/mL ; strain: ATCC 16404 ; method: agar diffusion / agar ; value: 23 mm
CCOCc1c(O)cc2c(c1O)C(=O)c1ccccc1C2=O ; tested at: 13.3 µg/disc ; method: agar diffusion ; value: 0 mm
CN(C)c1ccc(/C=C(\C#N)c2ccccc2)cc1 ; tested at: 100 µg ; method: agar diffusion ; value: 0 mm
CN(Cc1cc2ccccc2nc1Cl)c1ccc(F)c(Cl)c1 ; tested at: 200 µg/mL ; strain: MTCC 281 ; method: agar diffusion ; value: 19.44 mm
CS(=O)(=O)c1nc(N)c(C#N)c(-c2ccccc2)n1 ; tested at: 50 µg/mL ; strain: MTCC 282 ; method: agar diffusion ; value: 19 mm
COc1ccc(-c2nc(S(C)(=O)=O)nc(N)c2C#N)cc1 ; tested at: 100 µg/mL ; strain: MTCC 282 ; method: agar diffusion ; value: 21 mm
Cc1nc2ccccc2n(CC(=O)NN2C(=O)CSC2c2ccc(N(C)C)cc2)c1=O ; tested at: 50 µg/mL ; value: 11 mm